How the values were obtained:
[1] = test system: HLA-A*02-positive cancer and normal tissue samples; test: Identification and relative quantitation of HLA-A*02 tumor associated peptides presented on the cell surface (LC-MS, XPRESIDENT); parameters: species or system human; details: FIG. 1, HLA-A*02 peptides
[2] = test system: HLA-A*24-positive cancer and normal tissue samples; test: Identification and relative quantitation of HLA-A*24 tumor associated peptides presented on the cell surface (LC-MS, XPRESIDENT); parameters: species or system human; details: FIG. 1, HLA-A*24 peptides; for number of cell lines where the peptide was found to be presented: benign prostate hyperplasias

| Substance | number of cancer tissues where the peptide was found to be presented [1] | number of cancer tissues where the peptide was found to be presented [2] | also measured |
| --- | --- | --- | --- |
| SEQ ID NO: 305 (KLFTSVFGV; listed as Homo sapiens) | 5 | – | – |
| SEQ ID NO: 237 (ALAPHLDDA; listed as Homo sapiens) | 10 | – | number of cell lines where the peptide was found to be presented [1]: 1 |
| SEQ ID NO: 39 (HLLEGSVGV; listed as Homo sapiens) | 7 | – | – |
| SEQ ID NO: 203 (FYSRLLQKF; listed as Homo sapiens) | – | 15 | number of cell lines where the peptide was found to be presented [2]: 1 |
| SEQ ID NO: 288 (VYVSDIQEL; listed as Homo sapiens) | – | 21 | number of normal tissues where the peptide was found to be presented [2]: 2 |
| SEQ ID NO.: 92 (GLLFSLRSV; listed as Homo sapiens) | 14 | – | number of cell lines where the peptide was found to be presented [1]: 2; number of normal tissues where the peptide was found to be presented [1]: 1 |
| SEQ ID NO: 287 (LYITEPKTI; listed as Homo sapiens) | – | 12 | – |
| SEQ ID NO: 259 (ILLPRIIEA; listed as Homo sapiens) | 27 | – | number of cell lines where the peptide was found to be presented [1]: 1 |
| SEQ ID NO: 160 (VYTLDIPVL; listed as Homo sapiens) | – | 17 | – |
| SEQ ID NO: 277 (VYQGHTALL; listed as Homo sapiens) | – | 64 | number of normal tissues where the peptide was found to be presented [2]: 4; number of cell lines where the peptide was found to be presented [2]: 2 |
| SEQ ID NO: 8 (SIYQFLIAV; listed as Homo sapiens) | 14 | – | number of cell lines where the peptide was found to be presented [1]: 2 |
| SEQ ID NO.: 158 (HYSQELSLLYL; listed as Homo sapiens) | – | 19 | – |
| SEQ ID NO: 278 (RYISDQLFTNF; listed as Homo sapiens) | – | 31 | number of normal tissues where the peptide was found to be presented [2]: 1 |
| SEQ ID NO: 32 (VQLDSIEDLEV; listed as Homo sapiens) | 10 | – | – |
| SEQ ID NO: 13 (ALMAMLVYV; listed as Homo sapiens) | 17 | – | – |
| SEQ ID NO: 270 (NYYEVHKELF; listed as Homo sapiens) | – | 14 | – |
| SEQ ID NO: 164 (KFSSFSLFF; listed as Homo sapiens) | – | 14 | number of cell lines where the peptide was found to be presented [2]: 2 |
| SEQ ID NO.: 195 (TYSVSFPMF; listed as Homo sapiens) | – | 58 | number of normal tissues where the peptide was found to be presented [2]: 1; number of cell lines where the peptide was found to be presented [2]: 3 |

Reference: patent publication US10098937B2, “Peptides and combination of peptides for use in immunotherapy against various cancers” (immatics biotechnologies GmbH, priority 2015, dated 2018)
